Pooled drug test results. Numbers come from NIAID ChemDB, via PubChem.

Common to all: growth or infection tests; agent: HIV-1

Blank or dashed fields: not listed here. ECn is the concentration giving n% inhibition of infection, replication or growth. Two numbers with a dash give a range or band. Conditions beyond the fields shown may differ between rows.

CCCCC#CC1(C(F)(F)F)OC(=O)Nc2ccc(N)cc21 ; cells: MT-2 ; endpoint: EC90 ; strain: RF ; value: 0.03353 µM
Cc1cc(O)ccc1O ; cells: MT-4 ; endpoint: EC50 ; method: cytopathic effect / MTT ; strain: IIIB ; value: 72 µg/mL
CC(C)CCC[C@@H](C)[C@H]1CCC2C3CCC4C[C@@H](O[C@@H]5O[C@H](COS(=O)(=O)[O-])[C@@H](O[C@H]6O[C@H](COS(=O)(=O)[O-])[C@@H](O[C@H]7O[C@H](COS(=O)(=O)[O-])[C@@H](O[C@H]8O[C@H](COS(=O)(=O)[O-])[C@@H](OS(=O)(=O)[O-])[C@H](OS(=O)(=O)[O-])[C@H]8OS(=O)(=O)[O-])[C@H](OS(=O)(=O)[O-])[C@H]7OS(=O)(=O)[O-])[C@H](OS(=O)(=O)[O-])[C@H]6OS(=O)(=O)[O-])[C@H](OS(=O)(=O)[O-])[C@H]5OS(=O)(=O)[O-])CC[C@]4(C)C3CC[C@@]21C ; cells: PBMC ; endpoint: EC50 ; method: p24 / ELISA / antigen ; strain: HI92-206 isolate (X4/R5) ; value: 5 µg/mL
CC1([C@@H]2CC[C@]3(NC(=O)N4CCC[C@H]4CN4CCCC4)CC[C@]4(C)[C@H](CC[C@@H]5[C@@]6(C)CC=C(c7ccc(C(=O)O)cc7)C(C)(C)[C@@H]6CC[C@]54C)[C@@H]23)CC1 ; cells: MT-2 ; endpoint: EC50 ; method: p24 / ELISA ; strain: 92HT599 ; value: ≤0.01 µM
C=CCOC(=O)N[C@@H](Cc1ccccc1)[C@H](O)CN(CC(C)C)S(=O)(=O)c1ccc(F)cc1 ; cells: CEM ; endpoint: EC50 ; method: p24 ; strain: IIIB ; value: <1.001 µM
CCCCCCCCCCCCCCCC(=O)Oc1ccc(OP(=O)(OCc2ccc(OC(=O)CCCC)cc2)OP(=O)(O)OP(=O)(O)OC[C@@H]2C=C[C@H](n3cc(C)c(=O)[nH]c3=O)O2)cc1 ; cells: CEM/TK- ; endpoint: EC50 ; method: syncytia / visual reading ; strain: IIIB ; value: 1.1 µM
CCCCC#CC1(C(F)(F)F)OC(=O)Nc2ccc([N+](=O)[O-])cc21 ; cells: MT-2 ; endpoint: EC90 ; strain: RF ; value: 0.00457 µM
Oc1cccc(O)c1O ; cells: MOLT-4 ; endpoint: EC50 ; method: syncytia ; strain: IIIB ; value: 11 µg/mL
CC(C)[C@H](NC(=O)OCc1ccccn1)C(=O)N[C@@H](Cc1ccccc1)[C@@H](O)C[C@H](Cc1ccccc1)NC(=O)OCc1cccnc1 ; cells: MT-4 ; endpoint: EC50 ; method: p24 ; changes: PR-L10R M46I L63P V82T I84V ; strain: NL4-3 ; value: <3 µM
CCOC(=O)N[C@@H](Cc1ccccc1)[C@H](O)CN(CC(C)C)S(=O)(=O)c1ccc(Cl)c(Cl)c1 ; cells: CEM ; endpoint: EC50 ; method: p24 ; strain: IIIB ; value: <1.001 µM
CCCCCCCCCCCCCCC(=O)Oc1ccc(OP(=O)(OCc2ccc(OC(=O)CC(C)C)cc2)OP(=O)(O)OP(=O)(O)OC[C@@H]2C=C[C@H](n3cc(C)c(=O)[nH]c3=O)O2)cc1 ; cells: CEM ; endpoint: EC50 ; method: syncytia / visual reading ; strain: IIIB ; value: 0.17 µM
COc1cc([C@@H]2Oc3cc([C@H]4Oc5cc(O)cc(O)c5C(=O)[C@@H]4O)ccc3O[C@H]2COP(=O)(O)OC[C@H]2O[C@H](O[C@H]3O[C@H](CO)[C@@H](O)[C@H](O)[C@H]3O)[C@H](O)[C@@H](O)[C@@H]2O)ccc1O ; cells: MT-4 ; endpoint: EC50 ; method: MTT ; strain: IIIB ; value: >140 µM
CC1([C@@H]2CC[C@]3(NC(=O)N4CCC(OCCN5CCOCC5)CC4)CC[C@]4(C)[C@H](CC[C@@H]5[C@@]6(C)CC=C(c7ccc(C(=O)O)cc7)C(C)(C)[C@@H]6CC[C@]54C)[C@@H]23)CC1 ; cells: MT-2 ; endpoint: EC50 ; method: p24 / ELISA ; strain: 92HT599 ; value: ≤0.01 µM
COc1cc([C@@H]2Oc3cc([C@H]4Oc5cc(O)cc(O)c5C(=O)[C@@H]4O)ccc3O[C@H]2CO)ccc1O ; cells: MT-4 ; endpoint: EC50 ; method: MTT ; strain: IIIB ; value: >110 µM
CC(C)CN(C[C@@H](O)[C@H](Cc1ccccc1)NC(=O)OC(C)(C)C)S(=O)(=O)c1ccc(F)cc1 ; cells: CEM ; endpoint: EC50 ; method: p24 ; strain: IIIB ; value: <1.001 µM
O=C(O)/C=C/c1ccc(O)c(O)c1 ; cells: MT-4 ; endpoint: EC50 ; method: cytopathic effect / MTT ; strain: IIIB ; value: 5 µg/mL
CNC(=O)P(=O)(O)OC1OC(n2cc(C)c(=O)[nH]c2=O)CC1N=[N+]=[N-] ; cells: MT-4 ; endpoint: EC50 ; method: p24 / ELISA / antigen ; strain: TKV-4046 ; value: 0.23 µM
CC(C)CN(C[C@@H](O)[C@H](Cc1ccccc1)NC(=O)[C@H](CC(N)=O)NC(=O)c1ccc2ccccc2n1)S(=O)(=O)c1cccc2nonc12 ; cells: CEM ; endpoint: EC90 ; method: p24 ; strain: IIIB ; value: <0.1 µM
CCCCNC(=O)P(=O)(O)OC1OC(n2cc(C)c(=O)[nH]c2=O)CC1N=[N+]=[N-] ; cells: MT-4 ; endpoint: EC50 ; method: p24 / ELISA / antigen ; strain: TKV-4046 ; value: 0.48 µM
O=C(N[C@@H](Cc1ccccc1)[C@H](O)CN(CC1CCCC1)S(=O)(=O)c1ccc(F)cc1)O[C@@H]1CCOC1 ; cells: CEM ; endpoint: EC90 ; method: p24 ; strain: IIIB ; value: 0.101–1 µM
CCN[C@H]1[C@@H](OC)O[C@H](COP(=O)(O)OC[C@@H]2Oc3ccc([C@H]4Oc5cc(O)cc(O)c5C(=O)[C@@H]4O)cc3O[C@H]2c2ccc(O)c(OC)c2)[C@@H](O)[C@@H]1O ; cells: MT-4 ; endpoint: EC50 ; method: MTT ; strain: IIIB ; value: 73 µM
Cc1ccc(O)c(O)c1 ; cells: MT-4 ; endpoint: EC50 ; method: cytopathic effect / MTT ; strain: IIIB ; value: 58 µg/mL
CCCCCCCCCCCCCCCCCC(=O)Oc1ccc(OP(=O)(OCc2ccc(OC(=O)CCCC)cc2)OP(=O)(O)OP(=O)(O)OC[C@@H]2C=C[C@H](n3cc(C)c(=O)[nH]c3=O)O2)cc1 ; cells: CEM ; endpoint: EC50 ; method: syncytia / visual reading ; strain: IIIB ; value: 0.12 µM
O=C1C=CC(=C(c2ccc(O)cc2)c2ccc(O)cc2)C=C1 ; cells: MOLT-4 ; endpoint: EC50 ; method: syncytia ; strain: IIIB ; value: >100 µg/mL
CCCCCCCCCCCCCCC(=O)Oc1ccc(COP(=O)(Oc2ccc(OC(=O)CCC(=O)OCCOCCOCCOC)cc2)OP(=O)(O)OP(=O)(O)OC[C@@H]2C=C[C@H](n3cc(C)c(=O)[nH]c3=O)O2)cc1 ; cells: CEM/TK- ; endpoint: EC50 ; method: syncytia / visual reading ; strain: IIIB ; value: 1.3 µM
CC1([C@@H]2CC[C@]3(NC(=O)N4CCC[C@H]4c4ncc(-c5ccccc5)[nH]4)CC[C@]4(C)[C@H](CC[C@@H]5[C@@]6(C)CC=C(c7ccc(C(=O)O)cc7)C(C)(C)[C@@H]6CC[C@]54C)[C@@H]23)CC1 ; cells: MT-2 ; endpoint: EC50 ; method: p24 / ELISA ; strain: 92HT599 ; value: 0.01001–0.05 µM
CC(C)CN(C[C@@H](O)[C@H](Cc1ccccc1)NC(=O)O[C@H]1CCOC1)S(=O)(=O)c1cccc2nonc12 ; cells: CEM ; endpoint: EC50 ; method: p24 ; strain: IIIB ; value: <1.001 µM
C=C(C)[C@@H]1CC[C@]2(NC(=O)N3CCC[C@H]3c3ncc(-c4ccccc4)[nH]3)CC[C@]3(C)[C@H](CC[C@@H]4[C@@]5(C)CC=C(c6ccc(C(=O)O)cc6)C(C)(C)[C@@H]5CC[C@]43C)[C@@H]12 ; cells: MT-2 ; endpoint: EC50 ; method: p24 / ELISA ; strain: 92HT599 ; value: 0.01001–0.05 µM
Cc1cn(C2CC(N=[N+]=[N-])C(OP(=O)(O)C(N)=O)O2)c(=O)[nH]c1=O ; cells: MT-4 ; endpoint: EC50 ; method: p24 / ELISA / antigen ; strain: TKV-4046 ; value: 0.6 µM
Cc1nc2sc3c(c2c(Sc2ccccc2)c1C(OC(C)(C)C)C(=O)O)CCCC3 ; cells: MT-4 ; endpoint: EC50 ; method: MTT ; strain: IIIB ; value: 25.6 µM
CN(C)C(=O)N[C@]12CC[C@@H](C3(C)CC3)[C@@H]1[C@H]1CC[C@@H]3[C@@]4(C)CC=C(c5ccc(C(=O)O)cc5)C(C)(C)[C@@H]4CC[C@@]3(C)[C@]1(C)CC2 ; cells: MT-2 ; endpoint: EC50 ; method: p24 / ELISA ; strain: 92HT599 ; value: ≤0.01 µM

For reference, 2 entries again:

| smiles | cells | endpoint | method | changes | strain | value |
|---|---|---|---|---|---|---|
| Cc1ccc(O)c(O)c1 | MT-4 | EC50 | cytopathic effect / MTT | - | IIIB | 58 µg/mL |
| CCCCCCCCCCCCCCC(=O)Oc1ccc(OP(=O)(OCc2ccc(OC(=O)CC(C)C)cc2)OP(=O)(O)OP(=O)(O)OC[C@@H]2C=C[C@H](n3cc(C)c(=O)[nH]c3=O)O2)cc1 | CEM | EC50 | syncytia / visual reading | - | IIIB | 0.17 µM |